These results are taken from doi:10.1101/2023.04.28.538747.

This test deals with Recombinant mouse ACE2-Fc protein (mouse) (UniProt Q8R0I0). Kind of test: BLI. (In general: In BLI a coated tip is dipped into the sample, and binding shifts an interference pattern.)

The term Kd denotes the concentration at which binding is half-saturated. In the case of “SARS-CoV-2 BA.5.5 RBD protein (from UniProt P0DTC2) (domain or fragment)”, the Kd was 121 nM.
